In PMC7696940, “Effects of Rationally Designed Physico-Chemical Variants of the Peptide PuroA on Biocidal Activity towards Bacterial and Mammalian Cells” (International Journal of Molecular Sciences, 2020):

Tested on: HeLa cells
Type: cell-based, human
Settings: ratio of IC50 NIH-3T3 to IC50 HeLa; bounds calculated with 250 μg/mL
Experimental: Cytotoxicity to human cervical carcinoma HeLa cells and mouse fibroblastic NIH-3T3 cells was determined using the MTT assay as per Scudiero et al. with minor modifications. The cells were maintained in Dulbecco’s Modified Eagle Medium (DMEM) with 10% foetal bovine serum (FBS) and 1% penicillin G in a humidified incubator (Heraeus Hera Cell incubator) at 37 °C with 5% CO2. They were seeded in 96-well microtiter plates at 1 × 10^4 cells/well and allowed to adhere for 24 h in the incubator. The medium was removed, and adherent cells were washed with PBS. Fresh media containing serially diluted peptides in PBS (final concentrations 4 to 250 µg/mL) were added and the cells incubated for 24 h. Cells without peptides were used as negative controls. Following incubations, the medium was removed, and adherent cells were washed with PBS. 150 µL of MTT (diluted to 0.33 mg/mL in DMEM) and the plates incubated for 3 h. The precipitated formazan was dissolved in 100 µL of DMSO and its absorbance measured at 570 nm. Cell viability was determined as: (OD570 nm peptide treated cells/(OD570 nm untreated cells) × 100. Positive cytotoxicity was defined as peptide concentration that causes 50% growth inhibition in a cell line (IC50). All tests were carried out in triplicate.

Row | Substance | Therapeutic Index (TI)
1 | RKRWWRWWKWWKR-NH2 [dP1, diastereomeric counterpart of P1] | 2
2 | WWRWWKWW-NH2 [dWW, diastereomeric counterpart of WW] | 2
